The target of this experiment is DPAP3 (Plasmodium falciparum, UniProt Q8I1Y2). Put plainly: continuous fluorogenic assay, V0 fitted to reversible binding model. The following applies: read-out: DPAP3 / K i, no time-dependent inactivation, 2.2 µM Met-nLeu(o-Bzl)-ACC, pH 6, 5 mM DTT, RT. The source says: continuous fluorogenic assay, V0 fitted to reversible binding model on DPAP3 (recombinant)

Protein sequences, listed by entry. Tags and fused reporters are not part of them. Residues count along the entry.
UniProt Q8I1Y2, 21-939 limits assumed: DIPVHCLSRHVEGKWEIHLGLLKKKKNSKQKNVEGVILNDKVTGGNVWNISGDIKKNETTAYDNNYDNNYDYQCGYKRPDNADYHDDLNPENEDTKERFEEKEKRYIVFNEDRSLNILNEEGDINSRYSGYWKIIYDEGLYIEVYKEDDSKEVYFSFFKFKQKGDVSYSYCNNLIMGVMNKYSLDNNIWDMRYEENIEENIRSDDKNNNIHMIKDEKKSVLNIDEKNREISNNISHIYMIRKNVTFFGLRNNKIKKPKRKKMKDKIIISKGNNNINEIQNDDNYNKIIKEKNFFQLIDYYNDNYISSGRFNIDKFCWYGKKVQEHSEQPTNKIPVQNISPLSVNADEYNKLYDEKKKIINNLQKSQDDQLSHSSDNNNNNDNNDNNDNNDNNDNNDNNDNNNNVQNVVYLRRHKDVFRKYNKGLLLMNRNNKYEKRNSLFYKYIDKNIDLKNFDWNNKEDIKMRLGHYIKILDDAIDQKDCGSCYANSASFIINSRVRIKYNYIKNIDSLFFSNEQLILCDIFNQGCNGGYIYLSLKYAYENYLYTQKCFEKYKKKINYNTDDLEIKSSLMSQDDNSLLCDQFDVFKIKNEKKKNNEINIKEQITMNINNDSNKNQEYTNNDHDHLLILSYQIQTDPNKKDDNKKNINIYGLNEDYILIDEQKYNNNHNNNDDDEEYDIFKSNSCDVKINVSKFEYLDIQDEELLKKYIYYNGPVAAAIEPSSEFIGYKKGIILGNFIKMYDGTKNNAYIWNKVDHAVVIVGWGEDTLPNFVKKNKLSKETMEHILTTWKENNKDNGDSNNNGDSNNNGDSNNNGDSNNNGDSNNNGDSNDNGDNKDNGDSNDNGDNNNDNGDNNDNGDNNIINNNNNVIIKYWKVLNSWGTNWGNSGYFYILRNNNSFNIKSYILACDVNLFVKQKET

Ki data for 1 compound are collected here from PMC6851853, “Characterization of P. falciparum dipeptidyl aminopeptidase 3 specificity identifies differences in amino acid preferences between peptide‐based substrates and covalent inhibitors” (The Febs Journal, 2019).

In the case of `NCc1ccc(C(=O)N[C@H](/C=C/S(=O)(=O)CCCCCCCCCCC(=O)N[C@@H](Cc2ccc(O)cc2)C(N)=O)CCc2ccccc2)cc1`, the Ki was found to be 3.2 µM.
